Laboratory results taken from PubChem BioAssay AID463173 (ICCB-Longwood Screening Facility, Harvard Medical School, 2010).
The list shows a part of the results, in another mix than the full data. Calls of active or inactive are those of the source. No stated cut-off is given here; in the data, active means survival mostly below about 52% (no sharp cut-off); inactive means mostly above about 56%.

The compounds below were run on Wild type (assay: S. aureus survival, RN4220 and DeltatarO strains – OD600, teichoic acid synthesis inhibitors, primary screen (AID 463173)). Conditions: S. aureus RN4220 wild type/DeltatarO growth, OD600, 18 h, active compounds read low, screened at 18.75 µg/mL (by protocol).

SMILES | survival
CCCOc1cccc(C(=O)NCC2(N3CCOCC3)CCCCC2)c1 | inactive: 83%
CCOc1ccc(C(=O)NCC2(N3CCOCC3)CCCCC2)cc1 | inactive: 88%
O=C(NCC1(N2CCOCC2)CCCCC1)c1ccccc1Br | inactive: 89%
CCCCOc1ccccc1C(=O)NCC1(N2CCOCC2)CCCCC1 | inactive: 82%
O=C(NCC1(N2CCOCC2)CCCCC1)c1ccc(Cl)cc1 | inactive: 113%
COc1ccccc1C(=O)NCC1(N2CCOCC2)CCCCC1 | inactive: 89%
CC(C)(C)c1ccc(C(=O)NCC2(N3CCOCC3)CCCCC2)cc1 | inactive: 89%
Cc1ccccc1C(=O)NCC1(N(C)C)CCCCC1 | inactive: 87%
CN(C)C1(CNC(=O)c2ccc(C(C)(C)C)cc2)CCCCC1 | inactive: 87%
COc1cc(C(=O)NCC2(N3CCOCC3)CCCCC2)cc(OC)c1OC | inactive: 87%
O=C(NCC1(N2CCOCC2)CCCCC1)c1ccccc1 | inactive: 87%
O=C(NCC1(N2CCOCC2)CCCCC1)c1ccc([N+](=O)[O-])cc1 | inactive: 87%
O=C(NCC1(N2CCOCC2)CCCCC1)c1ccccc1[N+](=O)[O-] | inactive: 89%
